These results are taken from patent US9776963B2, “Small molecule CD4 mimetics and uses thereof” (priority 2008, dated 2017).

For assay [1], the target named is gp120 core-17b complex (Human immunodeficiency virus type 1 group M subtype B, UniProt P35961). The experiment in a line: Optical biosensor (BIAcore) binding assay. Details: species or system HIV. Conditions: BIAcore analysis. In general terms: In SPR one partner is held on a chip, and binding of the other changes the refractive index at the surface.
Assay [2] concerns the target HIVYU2 gp120 core (Human immunodeficiency virus type 1 group M subtype B, UniProt P35961). The assay is described as follows: Isothermal titration calorimetry, thermodynamic cycle, gp120 core. In kind it is binding, HIV. Conditions: gp120 core alone, calculated by completing the thermodynamic cycle.
For assay [3], the target named is T1, w.t. HIV-1 YU2 gp120 glycoprotein (Human immunodeficiency virus type 1 group M subtype B, UniProt P35961).
T1 construct: (His)6 (C); made in house; host or cells: 293F cells
Conditions: on average; cited from earlier work.

The target in assay [4] is T1, w.t. HIV-1 YU2 gp120 glycoprotein. Format: binding. Conditions: w.t. gp120, ITC, 25° C.
Assay [5] deals with T2, YU2 gp120 (Human immunodeficiency virus type 1 group M subtype B, UniProt P35961).
T2 construct: (His)6 (C); made in house; host or cells: 293F cells
The assay is described as follows: Compound binding assay with [3H]-NBD-556, YU2 gp120. Further details: species or system HIV.

Assay [6] addresses gp120 core bound to the 17b antibody (Human immunodeficiency virus type 1 group M subtype B, UniProt P35961). The experiment in a line: Isothermal titration calorimetry, gp120 core bound to 17b. In kind it is binding, HIV. A general note: Isothermal titration calorimetry measures the heat released or taken up as one component is titrated into another.

As usually defined, the Kd is a measure of binding affinity in units of concentration. Turning to NBD-556, the Kd in assay [1] was 6.6 µM; in assay [2], 40 µM; in assay [4], 3.7 µM; in assay [6] (gp120 core bound to the 17b antibody, ITC), 1.5 µM. The “residues structured on binding” value in assay [3] is reported as 67 residues. Besides, the “direct binding of 3H-labeled compound (in words)” value in assay [5] was “efficiently”. In assay [6] (versus gp120 core alone), the “increase in affinity for the gp120 core bound to the 17b antibody” value is “approximately 25 fold”.
